Where “and” joins values, the source holds several entries; their conditions need not be identical. Equal values may be shown once.
Target: WcbL (Burkholderia pseudomallei, UniProt H7C745)

By UniProt entry, the sequences of proteins in these tests, tags left out. Residues count along the entry.
UniProt H7C745, 1-346: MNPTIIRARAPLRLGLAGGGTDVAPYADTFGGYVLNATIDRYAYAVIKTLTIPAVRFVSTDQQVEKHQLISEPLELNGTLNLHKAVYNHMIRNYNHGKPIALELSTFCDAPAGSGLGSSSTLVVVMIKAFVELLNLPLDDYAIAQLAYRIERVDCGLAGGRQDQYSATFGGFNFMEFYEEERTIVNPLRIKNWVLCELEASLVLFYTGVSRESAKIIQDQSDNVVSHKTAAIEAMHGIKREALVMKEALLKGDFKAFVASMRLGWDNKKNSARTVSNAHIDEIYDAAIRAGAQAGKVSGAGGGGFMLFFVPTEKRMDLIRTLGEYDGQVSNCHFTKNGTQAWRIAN

Structure (SMILES): Nc1ncnc2c1ncn2[C@@H]1OC(COP(=O)(O)OP(=O)(O)O)[C@@H](O)[C@H]1O (stereo partly shown)
- Ki: 411 µM and 490 µM

Source: paper PMC4691232 (Chemistry & Biology, 2015)
